# PubChem BioAssay AID1259414 | Drosophila RNAi Screening Center, 2018
# Test: 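Fly genes that alter Wolbachia amount inside host cells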 (primary screen)
# Cells: Drosophila JW18 cells infected with Wolbachia
# Knock-down reagent: long dsRNA against Drosophila genes, 0.25 µg dsRNA per well of a 384-well plate
# Duration: 5 days
# Challenge: cells persistently infected with Wolbachia before knock-down; no added drug
# Measurement: 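Imaged fluorescence in situ signal for Wolbachia 23S rRNA per DAPI-counted host cell, given as a robust z-score within each plate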
# Reading the numbers: Wolbachia per cell robust z: higher = more Wolbachia per host cell than the plate typical
# Call rule: 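Hit when robust z is 1.5 or more, or -1.5 or less, in at least two of three replicates; excludes dsRNAs with several or no targets, genes not expressed in JW18 and well A1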
# The deposit covers about 24,000 reagents; below is an unselected part of those that have a named target and a result. Of all reagents, about 1,210 (5%) are marked active. 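Inactive calls also include excluded dsRNAs with several or no targets, genes unexpressed in JW18, and well A1, regardless of score.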 A plus sign joins genes that one reagent is predicted to hit.
target,dsRNA,"Wolbachia per cell robust z, rep 1","Wolbachia per cell robust z, rep 2","Wolbachia per cell robust z, rep 3",outcome
Uba1 (GeneID 35998),DRSC07567,-1.81,-4.9,0.874,active
Uba1 (GeneID 35998),DRSC28350,-0.537,-0.216,0.368,inactive
CG7065 (GeneID 31844),DRSC18420,1.14,-0.375,-0.0353,inactive
CG7065 (GeneID 31844),DRSC25280,0.712,0.248,0.902,inactive
St1 (GeneID 37742),DRSC04504,0.773,-3.89,-2.36,inactive
St1 (GeneID 37742),DRSC25543,-0.831,-0.493,0.973,inactive
JMJD5 (GeneID 38097),DRSC08372,-4.24,0.407,-0.221,inactive
JMJD5 (GeneID 38097),DRSC25820,-1.2,-1.77,0.501,inactive
CG33978 (GeneID 3885646),DRSC38804,0.435,1.1,0.546,inactive
ldbr (GeneID 38900),DRSC10933,-0.162,1.38,-0.00371,inactive
RapGAP1 (GeneID 34032),DRSC02293,-0.217,1.35,-3.43,inactive
RapGAP1 (GeneID 34032),DRSC02294,0.226,0.627,0.538,inactive
RapGAP1 (GeneID 34032),DRSC02295,-0.103,1.08,-0.411,inactive
RapGAP1 (GeneID 34032),DRSC03406,-0.689,-0.892,0.559,inactive
RapGAP1 (GeneID 34032),DRSC28628,-0.788,0.99,-1.08,inactive
RapGAP1 (GeneID 34032),DRSC29428,-0.573,0.693,-0.743,inactive
CG7465 (GeneID 38553),DRSC08592,-1.01,0.258,-0.531,inactive
CG7465 (GeneID 38553),DRSC22320,1.12,0.698,0.852,inactive
CG7465 (GeneID 38553),DRSC23943,-0.688,-13.7,-0.997,inactive
ens (GeneID 38491),DRSC08454,0.458,-0.541,-0.905,inactive
ens (GeneID 38491),DRSC25507,1.67,-0.841,0.546,inactive
CG10513 (GeneID 43051),DRSC14248,0.528,1.77,2.08,inactive
Alp11 (GeneID 32496),DRSC20080,-0.914,-4.61,0.613,inactive
EndoA (GeneID 42265),DRSC14775,-0.318,-0.0822,0.23,inactive
EndoA (GeneID 42265),DRSC29646,1.24,0.908,0.846,inactive
Ublcp1 (GeneID 42726),DRSC14149,1.25,0.174,0.269,inactive
Ublcp1 (GeneID 42726),DRSC28057,0.545,-1.27,0.0961,inactive
Ublcp1 (GeneID 42726),DRSC41569,-0.1,0.205,0.318,inactive
AP-1-2beta (GeneID 32987),DRSC19336,0.502,0.784,0.87,inactive
AP-1-2beta (GeneID 32987),DRSC23868,1.4,1.96,1.08,inactive
CG33296 (GeneID 2768941),DRSC00998,1.6,0.626,0.883,inactive
CG33296 (GeneID 2768941),DRSC23839,-0.213,0.954,0.574,inactive
Coq5 (GeneID 32272),DRSC19849,-2.18,-7.15,0.488,active
Coq5 (GeneID 32272),DRSC21371,-1.03,-0.0902,-1.02,inactive
Coq5 (GeneID 32272),DRSC29685,0.0934,0.84,-0.699,inactive
CG3285 (GeneID 33547),DRSC00589,-3.91,0.00652,-0.145,inactive
His4:CG33881 + His4:CG33897 + His4:CG33887 + 20 more,DRSC21268,0.404,0.639,0.488,inactive
CG7631 (GeneID 34919),DRSC01873,1.06,0.228,0.391,inactive
CG31142 (GeneID 251610),DRSC13647,0.00271,-0.337,0.222,inactive
hpRNA:CR32207 (GeneID 10178801),DRSC09616,-0.912,0.203,-0.26,inactive
CG6845 (GeneID 38019),DRSC08576,-0.25,1.17,-0.997,inactive
CG6845 (GeneID 38019),DRSC26319,0.057,-0.0051,1.36,inactive
qless (GeneID 43697),DRSC15103,-1.38,-2.45,-3.37,active
qless (GeneID 43697),DRSC15507,-0.026,0.372,-1.07,inactive
CG17650 (GeneID 33358),DRSC00510,-0.0167,-0.752,-1.33,inactive
rnh1 (GeneID 35746),DRSC07673,-1.95,0.971,-1.29,inactive
Or71a (GeneID 39641),DRSC11244,-0.076,0.0569,-1.1,inactive
Zip71B (GeneID 39626),DRSC09686,1.1,0.609,1.11,inactive
Zip71B (GeneID 39626),DRSC29491,0.264,-0.122,-0.483,inactive
CG3939 (GeneID 31295),DRSC18498,-0.234,-2.74,-0.534,inactive
CG13926 (GeneID 38192),DRSC08395,0.201,0.809,-2.08,inactive
CG2162 (GeneID 38360),DRSC08557,0.0456,-6.63,0.0793,inactive
CG2162 (GeneID 38360),DRSC25030,1.47,-2.52,0.445,inactive
wit (GeneID 44096),DRSC08741,1.3,0.104,-0.169,inactive
wit (GeneID 44096),DRSC26091,-0.376,-1.31,0.539,inactive
Obp56d (GeneID 37266),DRSC06064,-1.33,-0.806,-0.23,inactive
Srpk79D (GeneID 40461),DRSC11668,0.467,0.979,0.814,inactive
Srpk79D (GeneID 40461),DRSC11856,-0.326,-0.42,0.402,inactive
Srpk79D (GeneID 40461),DRSC29962,0.548,0.589,-3.63,inactive
CG6055 (GeneID 34027),DRSC02923,1.05,0.521,0.282,inactive
brp (GeneID 35977),DRSC06245,1.27,0.583,0.338,inactive
brp (GeneID 35977),DRSC06246,1.03,1.54,0.744,inactive
brp (GeneID 35977),DRSC06801,0.338,-0.081,0.438,inactive
brp (GeneID 35977),DRSC21893,-0.406,-2.03,-1.2,inactive
brp (GeneID 35977),DRSC29170,-0.9,-2.07,-2.53,active
brp (GeneID 35977),DRSC29721,-0.0453,0.76,-0.101,inactive
CG5347 (GeneID 32403),DRSC19942,-0.409,-1.41,0.133,inactive
hoka (GeneID 38588),DRSC08313,-0.819,-1.02,-0.865,inactive

Taken from above:
brp (GeneID 35977) [DRSC29721], outcome → inactive
Entry of Uba1 (GeneID 35998) [DRSC28350] under “Wolbachia per cell robust z, rep 2”: -0.216
Value for CG5347 (GeneID 32403) [DRSC19942] in “outcome”: inactive
Entry for brp (GeneID 35977) [DRSC06246] under “Wolbachia per cell robust z, rep 3”: 0.744
CG17650 (GeneID 33358) [DRSC00510], outcome: inactive
CG3939 (GeneID 31295) [DRSC18498], Wolbachia per cell robust z, rep 1: -0.234
